A mixed list of measured activities; the numbers were collected in NIAID ChemDB.

Shared fields: whole-cell or culture tests; species: HIV-1

An empty or dashed field is not shown.

smiles | setting | changes | method | strain or isolate | cell line | measure | value
Cc1cc(S(N)(=O)=O)ccc1NC(=O)COc1ccc(Cl)cc1C(=O)c1cc(Cl)cc(C#N)c1 |  | RT-Y181C | β-galactosidase | NNRTI-resistant (RT Y181C) | MAGI | EC50 | 0.0007 µM
O=C1Nc2cscc2S(=O)(=O)N1c1ccc(F)cc1 |  |  | cytopathic effect / MTT | IIIB | MT-4 | EC50 | >435.8 µM
Nc1nc(=O)n([C@H]2C[C@H](O)[C@@H](CO)O2)cc1COCC(F)(F)F |  |  | p24 |  | CEM | EC50 | >100 µg/mL
O=S(=O)(c1ccc(I)cc1)c1ccc(I)cc1 |  |  | XTT | RF | CEM + CEM-SS | EC50 | >100 µg/mL
Cc1cn([C@H]2C[C@H](N=[N+]=[N-])[C@@H](COC(=O)CCCCCCCCCCOc3ccc(I)cc3)O2)c(=O)[nH]c1=O |  |  |  | IIIB | CEM + CEM-SS | EC50 | 0.131 µM
O=C(O)COc1ccc(S(=O)(=O)c2ccc(OCC(=O)O)c([N+](=O)[O-])c2)cc1[N+](=O)[O-] |  |  | XTT | RF | CEM + CEM-SS | EC50 | >100 µg/mL
Cn1c2ccccc2c2c1cc(C#N)c(=O)n2-c1ccc([N+](=O)[O-])cc1 |  | TAM1 (M41L D67N L210W T215Y) |  | HXB2 | MT-2 | EC50 | 110.9 µM
CCN1C(=O)N(Cc2ccccc2)S(=O)(=O)c2cscc21 |  | RT-Y188H | syncytia | IIIB | CEM | EC50 | >310 µM
O=c1[nH]cnc2c1ncn2[C@H]1CC[C@@H](CO)O1 |  |  | cytopathic effect / MTT | IIIB | MT-4 | EC90 | 1.7 µg/mL
O=C1N(Cc2ccccc2)c2cscc2S(=O)(=O)N1Cc1ccccc1 |  |  | syncytia | IIIB | CEM | EC50 | 1.8 µM
O=c1[nH]c(F)nc2c1ncn2[C@H]1CC[C@@H](CO)O1 |  |  | syncytia | LAV | MT-2 | EC50 | >20 µM
Cc1cn([C@H]2CC[C@@H](CO)O2)c(=O)[nH]c1=O |  |  | plaque count |  | HeLa + HELA CD4+ | EC50 | 100 µM
O=C(O)P(O)(O)=S |  |  | p24 |  | H9 | EC50 | 50 µM
Cc1nnc(C(=O)NC(C)(C)c2nc(C(=O)NCc3ccc(F)cc3)c(O)c(=O)n2C)o1 |  |  | luciferase | NL4-3 | ACH2 + TZM-bl | EC90 | 0.00333 µM
CC(=O)c1ccc(C)cc1NC(C(N)=O)c1c(Cl)cccc1Cl |  |  | cytopathic effect / MTT | IIIB | MT-4 | EC50 | 0.011 µg/mL
OC[C@@H]1[C@@H](O)[C@H](O)[C@@H](O)CN1C/C=C/c1ccccc1 |  |  | cell fusion | IIIB | MOLT-4 | EC50 | <2 µg/mL
Nc1ccn([C@H]2CC[C@@H](CO)O2)c(=O)n1 |  |  | p24 | BaL | Macrophage + Monocytes/macrophages | EC50 | 0.0003 µM
Nc1ccc(S(=O)(=O)c2ccc(N)cc2)cc1 |  |  | cytopathic effect / XTT | RF | CEM + CEM-SS | EC50 | >100 µg/mL
O=c1[nH]c(Cl)nc2c1ncn2[C@H]1CC[C@@H](CO)O1 |  |  | syncytia | LAV | MT-2 | EC50 | >20 µM
Cc1cn([C@H]2C[C@H](N=[N+]=[N-])[C@@H](COC(=O)CCCCCCCCCCBr)O2)c(=O)[nH]c1=O |  |  |  | IIIB | CEM + CEM-SS | EC50 | 0.0073 µM
CC(C)OC(=O)OCOP(=O)(CO[C@H](C)Cn1cnc2c(N)ncnc21)OCOC(=O)OC(C)C |  |  | GFP | NL4-3 | TZM-gfp | EC50 | 1 µM
CN1C(=O)N(Cc2ccccc2)c2cscc2S1(=O)=O |  |  | syncytia | IIIB | CEM | EC50 | >64.8 µM
Nc1nc(F)nc2c1ncn2[C@H]1CC[C@@H](CO)O1 |  |  | syncytia | LAV | MT-2 | EC50 | 9 µM
O=[N+]([O-])c1cc(S(=O)(=O)c2ccc(F)c([N+](=O)[O-])c2)ccc1F |  |  | XTT | RF | CEM + CEM-SS | EC50 | >100 µg/mL
CCCCCSCCCCCCCC(=O)OC[C@H]1O[C@@H](n2cc(C)c(=O)[nH]c2=O)C[C@@H]1N=[N+]=[N-] |  |  |  | IIIB | CEM + CEM-SS | EC50 | 0.0055 µM
Cc1ccnc2c1NC(=O)c1cccnc1N2C1CC1 |  |  | cytopathic effect / MTT | IIIB | MT-4 | EC90 | 0.047 µg/mL
O=S(=O)(SC(Cl)(Cl)Cl)c1cccc(S(=O)(=O)c2cccc(S(=O)(=O)SC(Cl)(Cl)Cl)c2)c1 |  |  | XTT | RF | CEM + CEM-SS | EC50 | >100 µg/mL
CCCCCCCCCCOCCC(=O)OC[C@H]1O[C@@H](n2cc(C)c(=O)[nH]c2=O)C[C@@H]1N=[N+]=[N-] |  |  |  | IIIB | CEM + CEM-SS | EC50 | 0.0014 µM
Nc1ccn([C@H]2CC[C@@H](CO)O2)c(=O)n1 | clinical isolate | ddI-resistant |  | Clinical isolate | MT-4 | EC50 | 0.65 µM
CCN1C(=O)N(Cc2ccc(OC)cc2OC)S(=O)(=O)c2cscc21 |  |  | cytopathic effect / MTT | IIIB | MT-4 | EC50 | >255.2 µM
Cc1ccnc2c1NC(=O)c1cccnc1N2C1CC1 |  |  | luciferase | SF162 | ACH2 + TZM-bl | EC90 | 0.157 µM
O=C1OC(=O)c2cc(S(=O)(=O)c3ccc4c(c3)C(=O)OC4=O)ccc21 |  |  | XTT | RF | CEM + CEM-SS | EC50 | >100 µg/mL
Cc1cc(/C=C/C#N)cc(C)c1Oc1ccnc(S(=O)(=O)CC(=O)Nc2ccc(F)cc2)n1 |  | Y188L | MTT |  | MT-4 | EC50 | 2.281 µM
CC(C)CCCCCCCCCCCSCNc1ccc(S(=O)(=O)c2ccc(NCSCCCCCCCCCCCC(C)C)cc2)cc1 |  |  | XTT | RF | CEM + CEM-SS | EC50 | >100 µg/mL
Cc1cc(C#N)cc(C)c1Oc1nc(Nc2ccc(C#N)cc2)nc(N)c1Br |  | Y188L | MTT | IIIB | MT-4 | EC50 | 0.02 µM
N#Cc1ccc(S(=O)(=O)c2ccc(C#N)cc2)cc1 |  |  | XTT | RF | CEM + CEM-SS | EC50 | >100 µg/mL
Cc1cc(-c2ccc(C#N)cc2)cc(C)c1Oc1ccnc(S(=O)(=O)CC(=O)Nc2ccc(C#N)cc2)n1 |  | Y188L | MTT | IIIB | MT-4 | EC50 | 0.122 µM
C#CCN1C(=O)N(Cc2ccccc2)S(=O)(=O)c2cscc21 |  | RT-L100I | syncytia | IIIB | CEM | EC50 | 6 µM
Cc1cn([C@H]2C[C@H](N=[N+]=[N-])[C@@H](CO)O2)c(=O)[nH]c1=O |  |  | cytopathic effect / XTT | RF | CEM + CEM-SS | EC50 | 0.0037 µg/mL
Nc1nc(=O)n([C@@H]2CS[C@H](CO)O2)cc1F |  |  | RT activity | M48 ddI-resistant | PBMC | EC50 | 0.01 µM
O=C=Nc1cccc(S(=O)(=O)c2cccc(N=C=O)c2)c1 |  |  | XTT | RF | CEM + CEM-SS | EC50 | >100 µg/mL
N#CCN1C(=O)N(Cc2ccccc2)S(=O)(=O)c2cscc21 |  | RT-L100I | syncytia | IIIB | CEM | EC50 | 7.8 µM
CCCCCOCCCCCCCC(=O)OC[C@H]1O[C@@H](n2cc(C)c(=O)[nH]c2=O)C[C@@H]1N=[N+]=[N-] |  |  |  | IIIB | CEM + CEM-SS | EC50 | 0.017 µM
CN1C(=O)N(Cc2ccccc2)S(=O)(=O)c2cscc21 |  | RT-E138K | syncytia | IIIB | CEM | EC50 | >324 µM
Cc1cn([C@H]2C[C@H](N=[N+]=[N-])[C@@H](CO)O2)c(=O)[nH]c1=O |  |  | p24 |  | CEM | EC50 | 0.0025 µg/mL
Cc1cn([C@H]2C[C@H](N=[N+]=[N-])[C@@H](CO)O2)c(=O)[nH]c1=O |  |  | cytopathic effect | LAV-1 | CEM | EC50 | 0.005 µM
CC(=O)Oc1ccc(/C=C/C(=O)O[C@@H](C(=O)O)[C@@H](OC(=O)/C=C/c2ccc(OC(C)=O)c(OC(C)=O)c2)C(=O)O)cc1OC(C)=O |  | AR117-resistant |  | NL4-3 | MT-4 | EC50 | >74 µM

A second listing of 6 rows from above:

smiles	setting	changes	method	strain or isolate	cell line	measure	value
O=c1[nH]c(F)nc2c1ncn2[C@H]1CC[C@@H](CO)O1			syncytia	LAV	MT-2	EC50	>20 µM
Cc1cn([C@H]2C[C@H](N=[N+]=[N-])[C@@H](CO)O2)c(=O)[nH]c1=O			cytopathic effect / XTT	RF	CEM + CEM-SS	EC50	0.0037 µg/mL
O=C1N(Cc2ccccc2)c2cscc2S(=O)(=O)N1Cc1ccccc1			syncytia	IIIB	CEM	EC50	1.8 µM
CCCCCCCCCCOCCC(=O)OC[C@H]1O[C@@H](n2cc(C)c(=O)[nH]c2=O)C[C@@H]1N=[N+]=[N-]				IIIB	CEM + CEM-SS	EC50	0.0014 µM
Nc1ccn([C@H]2CC[C@@H](CO)O2)c(=O)n1			p24	BaL	Macrophage + Monocytes/macrophages	EC50	0.0003 µM
Cc1cc(-c2ccc(C#N)cc2)cc(C)c1Oc1ccnc(S(=O)(=O)CC(=O)Nc2ccc(C#N)cc2)n1		Y188L	MTT	IIIB	MT-4	EC50	0.122 µM

ECn is the concentration giving n% inhibition of infection, replication or growth. Rows are shuffled and stem from different studies.